One molecule from PubChem BioAssay AID485367 (National Center for Advancing Translational Sciences (NCATS), 2010) can be followed below.

By UniProt entry, the sequences of proteins in these tests, tags left out.
UniProt O15648, whole entry: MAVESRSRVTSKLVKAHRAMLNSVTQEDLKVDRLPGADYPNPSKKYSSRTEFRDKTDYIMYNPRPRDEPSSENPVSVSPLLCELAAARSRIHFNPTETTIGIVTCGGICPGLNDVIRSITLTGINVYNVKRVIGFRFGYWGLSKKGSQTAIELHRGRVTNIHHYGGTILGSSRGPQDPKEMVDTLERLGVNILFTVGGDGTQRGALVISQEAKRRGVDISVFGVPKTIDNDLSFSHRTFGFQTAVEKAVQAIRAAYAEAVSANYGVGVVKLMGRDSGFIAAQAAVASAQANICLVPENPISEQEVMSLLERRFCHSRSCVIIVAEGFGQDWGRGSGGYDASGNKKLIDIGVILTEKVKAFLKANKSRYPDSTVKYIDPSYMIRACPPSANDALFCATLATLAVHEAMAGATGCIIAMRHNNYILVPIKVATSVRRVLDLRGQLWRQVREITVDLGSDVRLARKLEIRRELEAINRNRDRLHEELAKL

Structures are written as SMILES. The list shows a part of the results, in another mix than the full data. The source made the active and inactive calls. Calls come from the whole dose curve; as a rule, active = well fitted inhibition curve with a large enough effect; inconclusive = small, poorly fitted or top-dose-only effect, or effect the other way; inactive = flat fitted curve, though single readings scatter.

The target in the assay is ATP-dependent 6-phosphofructokinase (Trypanosoma brucei brucei) (UniProt O15648). The assay can be described thus: qHTS Assay to Find Inhibitors of T. brucei phosphofructokinase.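 Note: 0% = uninhibited 1x PFK enzyme wells and -100% = no-enzyme wells; nearly all actives have a fitted effect of over 60% in size.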 Conditions: T. brucei PFK, ADP-Glo luminescence; at 57.5 µM (top of the series). The text has this: NIH Molecular Libraries Probe Production Network [MLPCN] NIH Chemical Genomics Center [NCGC] Grant: 1 R03 MH092153-01 PI Name: Malcolm Walkinshaw, University of Edinburgh NCGC Assay Overview: Various species of the protozoan family Trypanosomatidae are responsible for a range of serious human diseases in tropical and subtropical areas of the world. […] Many of the disorders caused by trypanosomatids are fatal if left untreated, but most currently used drugs are inefficient and toxic. […] A luminescence-based assay for T. brucei PFK activity has been developed which uses luciferase to detect production of ADP. […] To directly measure the ADP product of the PFK reaction, we used the ADP-Glo detection kit (Promega), which utilizes two separate reactions to 1) deplete all remaining uncatalyzed ATP and 2) convert all remaining ADP to ATP, which is then detected through a traditional luciferase-coupled reaction. […]
NCGC Assay Protocol Summary: NCGC Assay Protocol Summary: Substrate buffer was dispensed into white, solid 1536-well plates at 3uL/well in 0.1M triethanolamine (TEA) buffer, pH 8.0, containing final concentrations of 5 mM MgCl2, 0.01% Tween20, 0.5 mM fructose-6-phosphate (F6P) and 0.1mM ATP. […] The plates were measured on a ViewLux plate reader for luminescent signal using a clear filter with a one second exposure. The %Activity was determined from the corrected luminescence values. […]
As for `Cc1ccccc1NP(C)(=O)Nc1ccccc1C`, the activity, negative = inhibition is inactive: -11.4%.
